{
  "source": "patent US20140256664A1",
  "about": "“COMPOSITIONS AND METHODS FOR A MYCOBACTERIUM TUBERCULOSIS DRUG SUSCEPTIBILITY TEST” (priority 2011, published 2014)",
  "key": {"M. tuberculosis isolates": {"test_system": "M. tuberculosis isolates", "assay": "Standard agar proportion method", "type": "cell-based, Mycobacterium tuberculosis", "conditions": "isolates with no mutation in rpoB"}, "[1]": {"test_system": "33 isolates of M. tuberculosis", "assay": "D29 phage-qPCR drug susceptibility assay, 33 isolates", "type": "cell-based, Mycobacterium tuberculosis", "conditions": "isolates with no mutation in rpoB"}},
  "data": [
    {"smiles": "CO[C@H]1/C=C/O[C@@]2(C)Oc3c(C)c(O)c4c(O)c(c(/C=N/N5CCN(C)CC5)c(O)c4c3C2=O)NC(=O)/C(C)=C\\C=C\\[C@H](C)[C@H](O)[C@@H](C)[C@@H](O)[C@@H](C)[C@H](OC(C)=O)[C@@H]1C", "note": "[Rifampin, rifampin]", "values": [
      {"measurement": "Agar proportion Resistant (n isolates)", "setting": "M. tuberculosis isolates", "value": 0},
      {"measurement": "D29 phage assay Resistant (n isolates)", "setting": "[1]", "value": 0}
    ]}
  ]
}
